A mixed list of measured activities; the numbers were collected in NIAID ChemDB.

All rows: tests on isolated targets; organism: HIV-1; protein: Integrase; endpoint: IC50

a–b is a range or a potency band.

structure | strain or isolate | setting | method | result
O=C(Oc1c(-c2ccc(Cl)cc2)oc2ccccc2c1=O)c1cc(O)c(O)c(O)c1 |  |  | 3′ processing | 8.3 µM
O=C1/C(=C/c2cc(O)c(O)c(O)c2)CN(Cc2ccccc2)C/C1=C\c1cc(O)c(O)c(O)c1 |  |  | disintegration | 2 µM
Nc1ccn(C2CC(O)C(COP(=O)(O)OC3CC(n4cnc5c(N)ncnc54)OC3COP(=O)(O)OC3CC(n4ccc(N)nc4=O)OC3COP(=O)(O)O)O2)c(=O)n1 |  |  | 3′ processing | 93 µM
CCOC(=O)C(=O)C(=O)c1cccn1Cc1ccc(F)cc1 |  |  | binding | 3.59 µM
CN1C(=O)C(=O)/C(=C(\O)c2ccccc2)C1c1cccc(Cl)c1 |  |  | 3′ processing | >100 µM
Nc1ccn(C2CC(OP(=O)(O)OCC3OC(n4cnc5c(N)ncnc54)CC3OP(=O)(O)OCC3OC(n4cnc5c(=O)[nH]c(N)nc54)CC3O)C(CO)O2)c(=O)n1 |  |  | 3′ processing | 57 µM
CC(=O)C(N=Nc1ccc(S(=O)(=O)Nc2ccccn2)cc1)C(=O)Nc1ccccc1C |  | Mn2+ | 3′ processing | 55 µM
Nc1ncnc2c1ncn2C1CC(O)C(COP(=O)(O)OC2CC(n3cnc4c(N)ncnc43)OC2COP(=O)(O)O)O1 |  |  | 3′ processing | >100 µM
O=C1/C(=C/c2ccc(O)c(O)c2)CC(C(=O)O)C/C1=C\c1ccc(O)c(O)c1 |  |  | 3′ processing | 1.2 µM
CCC(C)C[C@H]1OC(=O)[C@H](C(C)C)N(C)C(=O)[C@@H](CC(C)C)OC(=O)[C@H](C(C)C)N(C)C(=O)[C@@H](C(C)C)OC(=O)[C@H](C(C)C)N(C)C1=O |  |  | 3′ processing | 11.8 µM
Cc1cn(C2CC(OP(=O)(O)OCC3OC(n4cnc5c(N)ncnc54)CC3O)C(COP(=O)(O)OC3CC(n4ccc(N)nc4=O)OC3CO)O2)c(=O)[nH]c1=O |  |  | strand transfer | 25 µM
COc1cc(-c2ccc(O)cc2)c(OC)c(O)c1-c1ccc(O)c(O)c1 |  |  | strand transfer | 12.1 µM
CC(=O)Oc1c(-c2ccc(Cl)c(Cl)c2)oc2ccccc2c1=O |  |  | 3′ processing | >100 µM
Cc1cn(C2CC(OP(=O)(O)OCC3OC(n4cnc5c(N)ncnc54)CC3O)C(COP(=O)(O)O)O2)c(=O)[nH]c1=O |  |  | 3′ processing | 85 µM
N#C/C(=C\c1cc(O)c(O)c(O)c1)C(=O)NCCCCCNC(=O)/C(C#N)=C/c1cc(O)c(O)c(O)c1 |  |  | 3′ processing / substrate cleavage | 0.45 µM
CCN(CC)CCCC(C)Nc1ccnc2cc(Cl)ccc12 |  |  | strand transfer | 5.14 µM
COC(=O)C(=O)OC1(C(=O)O)C[C@@H](OC(=O)/C=C/c2ccc(O)c(O)c2)C(O)[C@H](OC(=O)/C=C/c2ccc(O)c(O)c2)C1 | LAI |  | 3′ processing | 0.27 ± 0.08 µg/mL
CCN(CC)Cc1cc(Nc2ccnc3cc(Cl)ccc23)ccc1O |  |  | 3′ processing / substrate cleavage | >100 µM
NC(CCSSCCC(N)P(=O)(O)O)P(=O)(O)O | RF |  | 3′ processing | 294 µM
CC(C)C[C@H]1OC(=O)[C@H](C(C)C)N(C)C(=O)[C@@H](CC(C)C)OC(=O)[C@H](C(C)C)N(C)C(=O)[C@@H](C(C)C)OC(=O)[C@H](C(C)C)N(C)C1=O |  |  | 3′ processing | 10.6 µM
Cc1cn(C2CC(O)C(COP(=O)(O)OC3CC(n4cc(C)c(=O)[nH]c4=O)OC3COP(=O)(O)OC3CC(n4ccc(N)nc4=O)OC3COP(=O)(O)O)O2)c(=O)[nH]c1=O |  |  | strand transfer | 13 µM
N#C/C(=C\c1ccc(O)c(O)c1)C(=O)NCc1cccc(CNC(=O)/C(C#N)=C/c2ccc(O)c(O)c2)c1 |  |  | strand transfer | 5–10 µM
O=C(Oc1c(-c2ccc(Cl)c(Cl)c2)oc2ccccc2c1=O)c1cc(O)c(O)c(O)c1 |  |  | 3′ processing | 9.1 µM
COC(=O)C(=O)CC(=O)c1cccn1Cc1ccc(F)cc1 |  |  | strand transfer | >100 µM
CN(C)[C@H]1C(=O)C(C(=O)NCN2CCN(C(=N)N=C(N)N)CC2)=C(O)[C@]2(O)C(=O)C3=C(O)c4c(O)cccc4[C@](C)(O)[C@@H]3C[C@H]12 | RF |  | strand transfer | 0.3 µM
N#C/C(=C\c1cc(O)c(O)c(Br)c1)C(=O)NCCCNC(=O)/C(C#N)=C/c1cc(O)c(O)c(Br)c1 |  |  | disintegration | 0.8 µM
Cn1cc(NC(=O)c2cc(NC(=O)c3cc(NC=O)cn3C)cn2C)cc1C(=O)NCCC(=N)N |  |  | strand transfer | >100 µM
Cc1cn(C2CC(OP(=O)(O)OCC3OC(n4ccc(N)nc4=O)CC3O)C(COP(=O)(O)OC3CC(n4cnc5c(=O)[nH]c(N)nc54)OC3COP(=O)(O)O)O2)c(=O)[nH]c1=O |  |  | 3′ processing | 40 µM
O=C1C=CC(=O)c2c(O)cccc21 |  |  | strand transfer | >100 µM
Nc1ccn(C2CC(OP(=O)(O)OCC3OC(n4cnc5c(N)ncnc54)CC3OP(=O)(O)OCC3OC(n4cnc5c(N)ncnc54)CC3O)C(COP(=O)(O)O)O2)c(=O)n1 |  |  | strand transfer | 22 µM
O=C1/C(=C/c2ccc(Cl)c(Cl)c2)COC/C1=C\c1ccc(Cl)c(Cl)c1 |  |  | 3′ processing | 9 µM
O/N=C1\C(=C\c2ccc3c(c2)OCO3)CCCC1C(NO)c1ccc2c(c1)OCO2 | RF |  | 3′ processing | >200 µM
N#C/C(=C\c1ccc(O)c(O)c1)C(=O)NCCCCCCNC(=O)/C(C#N)=C/c1ccc(O)c(O)c1 |  |  | strand transfer | 1.1 µM
CC(C)=CCC[C@H](C)[C@@]1(O)CC[C@]2(C)C[C@H]3[C@H](C(=O)C[C@@]3(C)O)C(C=O)=C[C@H]21 |  |  | strand transfer | 125 µM
Nc1c(Br)cc2c([nH]c(=O)c3cc(Br)ccc32)c1Br |  | Mn2+ | 3′ processing | 60 µM
CC(C)=C/C=C\[C@H](C)[C@H]1CC[C@]2(C)C[C@H]3[C@H](C(=O)C[C@@]3(C)O)C(C=O)=C[C@@H]12 |  |  | strand transfer | >120 µM
COc1cc(C(=O)Oc2c(-c3ccc(Cl)c(Cl)c3)oc3ccccc3c2=O)cc(OC)c1O |  |  | 3′ processing | >100 µM
CC[C@@]1(O)C(=O)OCc2c1cc1n(c2=O)Cc2cc3c(N)cccc3nc2-1 |  |  | 3′ processing / substrate cleavage | >100 µM
C/C=C/c1cc(=O)c(C(=O)c2c(OC)cc(OC)cc2C(=O)OC)co1 |  |  | strand transfer | >140 µM
O=C(/C=C/c1ccc(O)c(O)c1)O[C@@H]1CC(O)(C(=O)O)C[C@@H](OC(=O)/C=C/c2ccc(O)c(O)c2)C1O | LAI |  | disintegration | 0.66 ± 0.24 µg/mL
Cc1cn(C2CC(O)C(COP(=O)(O)OC3CC(n4cnc5c(N)ncnc54)OC3COP(=O)(O)OC3CC(n4ccc(N)nc4=O)OC3COP(=O)(O)O)O2)c(=O)[nH]c1=O |  |  | strand transfer | 20 µM
O[C@H](c1cc(C(F)(F)F)nc2c(C(F)(F)F)cccc12)[C@@H]1CCCCN1 |  |  | strand transfer | >100 µM
Cc1ccnc(NS(=O)(=O)c2ccc(N=Nc3cc4ccccc4c(C(=O)O)c3O)cc2)n1 |  | Mg2+ | 3′ processing | 86 µM
Cc1c2cc[n+](C)cc2c(C)c2c1[nH]c1ccc(O)cc12 |  |  | 3′ processing / substrate cleavage | 10.1 µM
COC(=O)C1C(=O)N(O)C(=O)c2ccccc21 |  |  | ELISA | 4.77 µM
CCCCS(=O)(=O)c1ccc(Oc2cc(O)c3c(c2N)C(=O)c2ccccc2C3=O)cc1 |  | Mn2+ | 3′ processing | >200 µM
O=C(O)c1ccc(NCc2cc(O)ccc2O)cc1 |  |  | 3′ processing / substrate cleavage | 10–100 µM
CC(C)OC(=O)C(=O)CC(=O)c1cccn1Cc1ccc(F)cc1 |  |  | strand transfer | >100 µM
CN1C/C(=C\c2cc(O)c(O)c(O)c2)C(=O)/C(=C/c2cc(O)c(O)c(O)c2)C1 |  |  | 3′ processing | 0.4 µM
COc1cc(C(=O)Oc2c(-c3ccc(Cl)c(Cl)c3)oc3ccccc3c2=O)ccc1OC(C)=O |  |  | 3′ processing | >100 µM
CC(=O)O[C@H](C)[C@@H]1C2=C(C(=O)C[C@]1(C)O)C(=O)c1c(ccc(-c3ccc4c(c3O)C(=O)C3=C(C4=O)[C@@H]([C@@H](C)OC(C)=O)[C@@](C)(O)CC3=O)c1O)C2=O | RF |  | 3′ processing | 140 µM
O=C(NC(=O)c1cn(CCN2CCNCC2)c(=O)[nH]c1=O)OCc1ccccc1 |  | Mg2+ | 3′ processing | >200 µM
CC(C)c1ccc(C(c2ccc(OCC(=O)O)cc2)c2ccc(C(C)C)cc(=O)c2O)c(O)c(=O)c1 | RF |  | 3′ processing | 1.4 µM
CC(C)(C)c1cc(/C=C2/SC(=S)N(NC(=S)C(=O)Nc3ccc(O)cc3)C2=O)c(O)c(C(C)(C)C)c1 |  |  | 3′ processing | >100 µM

ICn is the concentration giving n% inhibition. Conditions beyond the fields shown may differ between rows. An empty or dashed field is not shown.